HBV/mock data for six molecules are collected here from PMC9104152, “Phosphoproteomics Unravel HBV Triggered Rewiring of Host Phosphosignaling Events” (International Journal of Molecular Sciences, 2022).

For the series, the system named is HepG2-NTCP cells. Put plainly: TMT-based phosphoproteome profiling of HBV-infected vs mock HepG2-NTCP (HBV/mock ratio). Also noted: species or system human. To be noted: phosphosite abundance ratio of host protein, HBV-infected vs mock HepG2-NTCP, 7dpi, sheet Up-regulated.

B1: P57086 1xPhospho [S/T] (protein, UniProt P57086 1-179, looked up)
SCAN domain-containing …: MAATEPILAATGSPAAVPPEKLEGAGSSSAPERNCVGSSLPEASPPAPEPSSPNAAVPEAIPTPRAAASAALELPLGPAPVSVAPQAEAEARSTPGPAGSRLGPETFRQRFRQFRYQDAAGPREAFRQLRELSRQWLRPDIRTKEQIVEMLVQEQLLAILPEAARARRIRRRTDVRITG
modifications: phospho
Regarding B1, the HBV/mock came out at 1.444.

B2: O75533 1xPhospho [T227(100)] (protein, UniProt O75533 1-1304, looked up)
Splicing factor 3B subunit 1: MAKIAKTHEDIEAQIREIQGKKAALDEAQGVGLDSTGYYDQEIYGGSDSRFAGYVTSIAATELEDDDDDYSSSTSLLGQKKPGYHAPVALLNDIPQSTEQYDPFAEHRPPKIADREDEYKKHRRTMIISPERLDPFADGGKTPDPKMNARTYMDVMREQHLTKEEREIRQQLAEKAKAGELKVVNGAAASQPPSKRKRRWDQTADQTPGATPKKLSSWDQAETPGHTPSLRWDETPGRAKGSETPGATPGSKIWDPTPSHTPAGAATPGRGDTPGHATPGHGGATSSARKNRWDETPKTERDTPGHGSGWAETPRTDRGGDSIGETPTPGASKRKSRWDETPASQMGGSTPVLTPGKTPIGTPAMNMATPTPGHIMSMTPEQLQAWRWEREIDERNRPLSDEELDAMFPEGYKVLPPPAGYVPIRTPARKLTATPTPLGGMTGFHMQTEDRTMKSVNDQPSGNLPFLKPDDIQYFDKLLVDVDESTLSPEEQKERKIMKLLLKIKNGTPPMRKAALRQITDKAREFGAGPLFNQILPLLMSPTLEDQERHLLVKVIDRILYKLDDLVRPYVHKILVVIEPLLIDEDYYARVEGREIISNLAKAAGLATMISTMRPDIDNMDEYVRNTTARAFAVVASALGIPSLLPFLKAVCKSKKSWQARHTGIKIVQQIAILMGCAILPHLRSLVEIIEHGLVDEQQKVRTISALAIAALAEAATPYGIESFDSVLKPLWKGIRQHRGKGLAAFLKAIGYLIPLMDAEYANYYTREVMLILIREFQSPDEEMKKIVLKVVKQCCGTDGVEANYIKTEILPPFFKHFWQHRMALDRRNYRQLVDTTVELANKVGAAEIISRIVDDLKDEAEQYRKMVMETIEKIMGNLGAADIDHKLEEQLIDGILYAFQEQTTEDSVMLNGFGTVVNALGKRVKPYLPQICGTVLWRLNNKSAKVRQQAADLISRTAVVMKTCQEEKLMGHLGVVLYEYLGEEYPEVLGSILGALKAIVNVIGMHKMTPPIKDLLPRLTPILKNRHEKVQENCIDLVGRIADRGAEYVSAREWMRICFELLELLKAHKKAIRRATVNTFGYIAKAIGPHDVLATLLNNLKVQERQNRVCTTVAIAIVAETCSPFTVLPALMNEYRVPELNVQNGVLKSLSFLFEYIGEMGKDYIYAVTPLLEDALMDRDLVHRQTASAVVQHMSLGVYGFGCEDSLNHLLNYVWPNVFETSPHVIQAVMGALEGLRVAIGPCRMLQYCLQGLFHPARKVRDVYWKIYNSIYIGSQDALIAHYPRIYNDDKNTYIRYELDYIL
modifications: phosphorylated T227
B2: the HBV/mock is reported as 2.232.

B3: Q9BST9 1xPhospho [S561(100)] (protein, UniProt Q9BST9 1-563, looked up)
Rhotekin: MFSRNHRSRVTVARGSALEMEFKRGRFRLSLFSDLPEDTELQRKLDHEIRMREGACKLLAACSQREQALEATKSLLVCNSRILSYMGELQRRKEAQVLGKTSRRPSDSGPPAERSPCRGRVCISDLRIPLMWKDTEYFKNKGDLHRWAVFLLLQLGEHIQDTEMILVDRTLTDISFQSNVLFAEAGPDFELRLELYGACVEEEGALTGGPKRLATKLSSSLGRSSGRRVRASLDSAGGSGSSPILLPTPVVGGPRYHLLAHTTLTLAAVQDGFRTHDLTLASHEENPAWLPLYGSVCCRLAAQPLCMTQPTASGTLRVQQAGEMQNWAQVHGVLKGTNLFCYRQPEDADTGEEPLLTIAVNKETRVRAGELDQALGRPFTLSISNQYGDDEVTHTLQTESREALQSWMEALWQLFFDMSQWKQCCDEIMKIETPAPRKPPQALAKQGSLYHEMAIEPLDDIAAVTDILTQREGARLETPPPWLAMFTDQPALPNPCSPASVAPAPDWTHPLPWGRPRTFSLDAVPPDHSPRARSVAPLPPQRSPRTRGLCSKGQPRTWLQSPV
modifications: phosphorylated S561
With B3, the HBV/mock was 1.468.

B4: Q13435 2xPhospho [S431(99.5); S] (protein, UniProt Q13435 1-895, looked up)
Splicing factor 3B subunit 2: MATEHPEPPKAELQLPPPPPPGHYGAWAAQELQAKLAEIGAPIQGNREELVERLQSYTRQTGIVLNRPVLRGEDGDKAAPPPMSAQLPGIPMPPPPLGLPPLQPPPPPPPPPPGLGLGFPMAHPPNLGPPPPLRVGEPVALSEEERLKLAQQQAALLMQQEERAKQQGDHSLKEHELLEQQKRAAVLLEQERQQEIAKMGTPVPRPPQDMGQIGVRTPLGPRVAAPVGPVGPTPTVLPMGAPVPRPRGPPPPPGDENREMDDPSVGPKIPQALEKILQLKESRQEEMNSQQEEEEMETDARSSLGQSASETEEDTVSVSKKEKNRKRRNRKKKKKPQRVRGVSSESSGDREKDSTRSRGSDSPAADVEIEYVTEEPEIYEPNFIFFKRIFEAFKLTDDVKKEKEKEPEKLDKLENSAAPKKKGFEEEHKDSDDDSSDDEQEKKPEAPKLSKKKLRRMNRFTVAELKQLVARPDVVEMHDVTAQDPKLLVHLKATRNSVPVPRHWCFKRKYLQGKRGIEKPPFELPDFIKRTGIQEMREALQEKEEQKTMKSKMREKVRPKMGKIDIDYQKLHDAFFKWQTKPKLTIHGDLYYEGKEFETRLKEKKPGDLSDELRISLGMPVGPNAHKVPPPWLIAMQRYGPPPSYPNLKIPGLNSPIPESCSFGYHAGGWGKPPVDETGKPLYGDVFGTNAAEFQTKTEEEEIDRTPWGELEPSDEESSEEEEEEESDEDKPDETGFITPADSGLITPGGFSSVPAGMETPELIELRKKKIEEAMDGSETPQLFTVLPEKRTATVGGAMMGSTHIYDMSTVMSRKGPAPELQGVEVALAPEELELDPMAMTQKYEEHVREQQAQVEKEDFSDMVAEHAAKQKQKKRKAQPQDSRGGSKKYKEFKF
modifications: diphosphorylated incl. S431
Consider B4, for which the HBV/mock was 3.7.

B5: Q96T23 1xPhospho [Y/S] (protein, UniProt Q96T23 1-1441, looked up)
Remodeling and spacing factor …: MATAAAAAAVMAPPGCPGSCPNFAVVCSFLERYGPLLDLPELPFPELERVLQAPPPDVGNGEVPKELVELHLKLMRKIGKSVTADRWEKYLIKICQEFNSTWAWEMEKKGYLEMSVECKLALLKYLCECQFDDNLKFKNIINEEDADTMRLQPIGRDKDGLMYWYQLDQDHNVRMYIEEQDDQDGSSWKCIVRNRNELAETLALLKAQIDPVLLKNSSQQDNSSRESPSLEDEETKKEEETPKQEEQKESEKMKSEEQPMDLENRSTANVLEETTVKKEKEDEKELVKLPVIVKLEKPLPENEEKKIIKEESDSFKENVKPIKVEVKECRADPKDTKSSMEKPVAQEPERIEFGGNIKSSHEITEKSTEETEKLKNDQQAKIPLKKREIKLSDDFDSPVKGPLCKSVTPTKEFLKDEIKQEEETCKRISTITALGHEGKQLVNGEVSDERVAPNFKTEPIETKFYETKEESYSPSKDRNIITEGNGTESLNSVITSMKTGELEKETAPLRKDADSSISVLEIHSQKAQIEEPDPPEMETSLDSSEMAKDLSSKTALSSTESCTMKGEEKSPKTKKDKRPPILECLEKLEKSKKTFLDKDAQRLSPIPEEVPKSTLESEKPGSPEAAETSPPSNIIDHCEKLASEKEVVECQSTSTVGGQSVKKVDLETLKEDSEFTKVEMDNLDNAQTSGIEEPSETKGSMQKSKFKYKLVPEEETTASENTEITSERQKEGIKLTIRISSRKKKPDSPPKVLEPENKQEKTEKEEEKTNVGRTLRRSPRISRPTAKVAEIRDQKADKKRGEGEDEVEEESTALQKTDKKEILKKSEKDTNSKVSKVKPKGKVRWTGSRTRGRWKYSSNDESEGSGSEKSSAASEEEEEKESEEAILADDDEPCKKCGLPNHPELILLCDSCDSGYHTACLRPPLMIIPDGEWFCPPCQHKLLCEKLEEQLQDLDVALKKKERAERRKERLVYVGISIENIIPPQEPDFSEDQEEKKKDSKKSKANLLERRSTRTRKCISYRFDEFDEAIDEAIEDDIKEADGGGVGRGKDISTITGHRGKDISTILDEERKENKRPQRAAAARRKKRRRLNDLDSDSNLDEEESEDEFKISDGSQDEFVVSDENPDESEEDPPSNDDSDTDFCSRRLRRHPSRPMRQSRRLRRKTPKKKYSDDDEEEESEENSRDSESDFSDDFSDDFVETRRRRSRRNQKRQINYKEDSESDGSQKSLRRGKEIRRVHKRRLSSSESEESYLSKNSEDDELAKESKRSVRKRGRSTDEYSEADEEEEEEEGKPSRKRLHRIETDEEESCDNAHGDANQPARDSQPRVLPSEQESTKKPYRIESDEEEDFENVGKVGSPLDYSLVDLPSTNGQSPGKAIENLIGKPTEKSQTPKDNSTASASLASNGTSGGQEAGAPEEEEDELLRVTDLVDYVCNSEQL
modifications: phosphorylated
Regarding B5, the HBV/mock was found to be 2.043.

B6: A3KN83 1xPhospho [S] (protein, UniProt A3KN83 1-1393, looked up)
Protein strawberry notch …: MVEPGQDLLLAALSESGISPNDLFDIDGGDAGLATPMPTPSVQQSVPLSALELGLETEAAVPVKQEPETVPTPALLNVRQQPPSTTTFVLNQINHLPPLGSTIVMTKTPPVTTNRQTITLTKFIQTTASTRPSVSAPTVRNAMTSAPSKDQVQLKDLLKNNSLNELMKLKPPANIAQPVATAATDVSNGTVKKESSNKEGARMWINDMKMRSFSPTMKVPVVKEDDEPEEEDEEEMGHAETYAEYMPIKLKIGLRHPDAVVETSSLSSVTPPDVWYKTSISEETIDNGWLSALQLEAITYAAQQHETFLPNGDRAGFLIGDGAGVGKGRTIAGIIYENYLLSRKRALWFSVSNDLKYDAERDLRDIGAKNILVHSLNKFKYGKISSKHNGSVKKGVIFATYSSLIGESQSGGKYKTRLKQLLHWCGDDFDGVIVFDECHKAKNLCPVGSSKPTKTGLAVLELQNKLPKARVVYASATGASEPRNMAYMNRLGIWGEGTPFREFSDFIQAVERRGVGAMEIVAMDMKLRGMYIARQLSFTGVTFKIEEVLLSQSYVKMYNKAVKLWVIARERFQQAADLIDAEQRMKKSMWGQFWSAHQRFFKYLCIASKVKRVVQLAREEIKNGKCVVIGLQSTGEARTLEALEEGGGELNDFVSTAKGVLQSLIEKHFPAPDRKKLYSLLGIDLTAPSNNSSPRDSPCKENKIKKRKGEEITREAKKARKVGGLTGSSSDDSGSESDASDNEESDYESSKNMSSGDDDDFNPFLDESNEDDENDPWLIRKDHKKNKEKKKKKSIDPDSIQSALLASGLGSKRPSFSSTPVISPAPNSTPANSNTNSNSSLITSQDAVERAQQMKKDLLDKLEKLAEDLPPNTLDELIDELGGPENVAEMTGRKGRVVSNDDGSISYESRSELDVPVEILNITEKQRFMDGDKNIAIISEAASSGISLQADRRAKNQRRRVHMTLELPWSADRAIQQFGRTHRSNQVTAPEYVFLISELAGEQRFASIVAKRLESLGALTHGDRRATESRDLSRFNFDNKYGRNALEIVMKSIVNLDSPMVSPPPDYPGEFFKDVRQGLIGVGLINVEDRSGILTLDKDYNNIGKFLNRILGMEVHQQNALFQYFADTLTAVVQNAKKNGRYDMGILDLGSGDEKVRKSDVKKFLTPGYSTSGHVELYTISVERGMSWEEATKIWAELTGPDDGFYLSLQIRNNKKTAILVKEVNPKKKLFLVYRPNTGKQLKLEIYADLKKKYKKVVSDDALMHWLDQYNSSADTCTHAYWRGNCKKASLGLVCEIGLRCRTYYVLCGSVLSVWTKVEGVLASVSGTNVKMQIVRLRTEDGQRIVGLIIPANCVSPLVNLLSTSDQSQQLAVQQKQLWQQHHPQSITNLSNA
modifications: phosphorylated serine
For B6, the HBV/mock was determined as 2.712.
